Compound potency records, mixed from different reports. Data source: NIAID ChemDB in PubChem.

All rows: tests on isolated targets; species: HIV-1; target: Protease; measure: IC50

ICn is the concentration giving n% inhibition. Blank or dashed fields: not listed here. Rows are shuffled and stem from different studies.

| compound | mutations | method | setting | value |
|---|---|---|---|---|
| COC(=O)[C@@H](NC(=O)N(Cc1ccccc1)CC(O)CN(Cc1ccccc1)C(=O)N[C@H](C(=O)OC)C(C)C)C(C)C |  |  |  | 10 µM |
| CC(=O)N[C@H](C(=O)N[C@@H](Cc1ccccc1)[C@H](O)CN1C[C@H]2CCCC[C@H]2C[C@H]1C(=O)NC(C)(C)C)C(C)(C)S(C)(=O)=O |  |  |  | 0.0029 µM |
| Cc1ccc(Cl)cc1N1CCN(Cc2cn([C@@H](Cc3ccccc3)[C@H](Cc3ccccc3)NC(=O)OC3CCCCCC3)nn2)CC1 |  | fluorescence |  | <5 µM |
| CC(C)(C)NC(=O)[C@@H]1CCCN1C(=O)[C@@H](O)[C@H](Cc1ccccc1)NC(=O)[C@H](CC(N)=O)NC(=O)OCC1c2ccccc2-c2ccccc21 |  |  |  | 0.045 µM |
| CCOc1ccccc1CNC(=O)[C@H]1N(C(=O)[C@@H](O)[C@H](Cc2ccccc2)NC(=O)c2cccc(O)c2C)CSC1(C)C |  | HPLC |  | ~0.05 µM |
| CCCCCCCC/C=C\CCCCCCCC(=O)N(CC(=O)N(CC(=O)N(Cc1ccccc1)CC(O)CN(Cc1ccccc1)C(=O)CN(C(=O)CN(C(=O)CCCCCCC/C=C\CCCCCCCC)C(C)C)C(C)C)C(C)C)C(C)C |  |  |  | 10 µM |
| CC(C)(C)OC(=O)N[C@@H](Cc1ccccc1)[C@H](O)CNC[C@@H](O)[C@H](CC1CCCCC1)NC(=O)OC(C)(C)C |  | HPLC | pH 5.5 | <10 µM |
| O=[N+]([O-])c1ccc(CO[C@@H]2[C@H](O)[C@@H](O)[C@@H](OCc3ccc([N+](=O)[O-])c(C(F)(F)F)c3)[C@@H](Cc3ccccc3)S(=O)(=O)[C@@H]2Cc2ccccc2)cc1C(F)(F)F |  | fluorescence |  | <2 µM |
| Cc1ccccc1C(=O)N[C@@H](Cc1ccccc1)[C@H](O)C(=O)N1CSC[C@H]1C(=O)NC(C)(C)C |  | HPLC |  | >5 µM |
| CC[C@H](C)[C@H](NC(=O)[C@H](Cc1ccccc1)N[C@H](O)CC(=O)[C@H](Cc1ccccc1)NC(=O)[C@@H](NC(=O)[C@H](CC(C)C)NC(C)=O)C(C)C)C(=O)N[C@H](C(N)=O)C(C)C |  | fluorescence |  | 0.005 µM |
| CC(C)(C)OC(=O)N[C@@H](Cc1ccccc1)[C@H](O)CNC[C@@H](O)[C@H](Cc1ccccc1)NC(=O)OC1COC[C@@H]1O |  | HPLC | pH 5.5 | <10 µM |
| CC(C)(C)NC(=O)[C@@H]1C[C@@H]2CCCC[C@@H]2CN1C[C@@H](O)[C@H](Cc1ccccc1)NC(=O)[C@@H](N)C(C)(C)C |  |  |  | 0.2 µM |
| Cc1cc(SC2=C(O)CC(CCc3ccccc3)(c3ccccc3)OC2=O)c(C(C)(C)C)cc1CO |  |  | pH 6.2 | 0.001 µM |
| C[C@H](Cc1cc2c(cc1O)OCO2)[C@H](C)Cc1cc2c(cc1O)OCO2 |  | substrate cleavage |  | 5.6 µM |
| Cc1c(N)cc(N)cc1C(=O)N[C@@H](Cc1ccccc1)[C@H](O)C(=O)N1CSC[C@H]1C(=O)NC(C)(C)C |  | HPLC |  | >5 µM |
| Nc1cccc(CO[C@@H]2[C@H](O)[C@@H](O)[C@@H](OCc3cccc(N)c3)[C@@H](Cc3ccccc3)S(=O)(=O)[C@@H]2Cc2ccccc2)c1 |  | fluorescence |  | <2 µM |
| CC(C)(C)NC(=O)[C@@H]1CCCN1C(=O)[C@@H](O)[C@H](Cc1ccccc1)NC(=O)[C@H](CC(N)=O)NC(=O)c1ccc2ccccc2n1 |  | HPLC |  | 0.044 µM |
| Cc1ccc(Cl)cc1N1CCN(Cc2cn([C@@H](Cc3ccccc3)[C@H](Cc3ccccc3)NC(=O)OC3CCCCC3)nn2)CC1 |  | fluorescence |  | <5 µM |
| CC(C)(C)NC(=O)[C@@H]1CCCN1C(=O)C(=O)[C@@H](Cc1ccccc1)NC(=O)[C@H](CC(N)=O)NC(=O)OCc1ccccc1 |  | HPLC |  | 0.3 µM |
| Cc1cccc(C)c1OCC(=O)N[C@@H](Cc1ccccc1)[C@H](O)C(=O)N1CSC(C)(C)[C@H]1C(=O)NC(C)(C)c1ccccc1 |  | HPLC |  | <0.05 µM |
| CC(C)=CCc1c(CO)cc2oc3cc(O)c(O)c(CC=C(C)C)c3c(=O)c2c1O |  | HPLC |  | 4.81 ± 0.32 µM |
| O=[N+]([O-])c1ccc(CO[C@@H]2[C@H](O)[C@@H](O)[C@@H](OCc3ccc([N+](=O)[O-])cc3)[C@@H](Cc3ccccc3)S(=O)(=O)[C@@H]2Cc2ccccc2)cc1 |  | fluorescence |  | <2 µM |
| CC(C)[C@H](NC(=O)N(C)Cc1ccccn1)C(=O)N[C@@H](Cc1ccccc1)[C@H](O)[C@@H](O)[C@H](Cc1ccccc1)NC(=O)[C@@H](NC(=O)N(C)Cc1ccccn1)C(C)C |  | fluorescence |  | <0.001 µM |
| CC(C)(C)NC(=O)[C@@H]1CSCN1C(=O)[C@@H](O)[C@H](Cc1ccccc1)NC(=O)c1ccc(C(=O)O)cc1 |  | HPLC |  | >5 µM |
| CC(C)(C)c1ccccc1SC1=C(O)CC(CCc2ccccc2)(c2ccccc2)OC1=O |  | HPLC | pH 4.7 | 0.0036 µM |
| O=S1[C@H](Cc2ccccc2)[C@H](OCc2ccccc2)[C@H](O)[C@@H](O)[C@@H](OCc2ccccc2)[C@H]1Cc1ccccc1 |  | fluorescence |  | <2 µM |
| Cc1c(O)cccc1C(=O)N[C@@H](Cc1ccccc1)[C@H](O)C(=O)N1CSC(C)(C)[C@H]1C(=O)NC12CC3CC(CC(C3)C1)C2 |  | HPLC |  | >0.05 µM |
| Cc1ccc(CO[C@@H]2[C@H](O)[C@@H](O)[C@@H](OCc3ccc(C)cn3)[C@@H](Cc3ccccc3)S(=O)(=O)[C@@H]2Cc2ccccc2)nc1 |  | fluorescence |  | <2 µM |
| O=c1oc(-c2ccccc2)cc(O)c1C(SC1CCCC1)C1CCCC1 |  | HPLC | pH 6.2 | 0.2 µM |
| CC(C)(C)OC(=O)N[C@@H](Cc1ccccc1)[C@H](O)CNC[C@@H](O)[C@H](Cc1ccc(OCC(=O)N2CCOCC2)cc1)NC(=O)OC(C)(C)C | PR-V82A | HPLC |  | 1.08 µM |
| CC(C)(C)OC(=O)N[C@@H](CC1CCCCC1)[C@H](O)CNC[C@@H](O)[C@H](CC1CCCCC1)NC(=O)OC(C)(C)C |  | HPLC | pH 5.5 | <10 µM |
| CC[C@H](C)[C@H](NC(=O)[C@@H]1CCCN1C[C@H](O)[C@H](Cc1ccccc1)NC(=O)[C@H](CC(N)=O)NC(=O)[C@H](CC(C)C)NC(=O)[C@H](CO)NC(C)=O)C(=O)N[C@H](C(=O)OC)C(C)C |  | fluorescence |  | 0.001 µM |
| CC(C)NCC(=O)N(CC(=O)N(Cc1ccccc1)CC(O)CN(Cc1ccccc1)C(=O)CN(C(=O)CNC(C)C)C(C)C)C(C)C |  |  |  | 10 µM |
| CC(C)(C)NC(=O)[C@@H]1C[C@@H]2CCCC[C@@H]2CN1C[C@@H](O)[C@H](Cc1ccccc1)NC(=O)[C@@H](NC(=O)c1ccc2ccccc2n1)C(C)(C)C |  |  |  | 0.0092 µM |
| Cc1c(N)cccc1C(=O)N[C@@H](Cc1ccccc1)[C@H](O)C(=O)N1CSC[C@H]1C(=O)NC(C)(C)C |  | HPLC |  | >5 µM |
| CC(C)[C@H](NC(=O)N(C)Cc1ccccn1)C(=O)N[C@@H](Cc1ccccc1)[C@H](O)[C@H](O)[C@H](Cc1ccccc1)NC(=O)[C@@H](NC(=O)N(C)Cc1ccccn1)C(C)C | PR-A71T | HPLC |  | 0.0014 µM |
| COC(=O)N[C@H](C(=O)N[C@@H](Cc1ccccc1)[C@H](O)CNC[C@@H](O)[C@H](Cc1ccccc1)NC(=O)OC(C)(C)C)C(C)C |  | HPLC | pH 5.5 | <10 µM |
| Cc1cccc(C)c1OCC(=O)N[C@@H](Cc1ccccc1)[C@H](O)C(=O)N1CSC(C)(C)[C@H]1C(=O)NCc1ccccn1 |  | HPLC |  | <0.05 µM |
| CC(C)(C)NC(=O)[C@@H]1C[C@@H]2CCCC[C@@H]2CN1C[C@@H](O)[C@H](Cc1ccccc1)NC(=O)CC(C)(C)S(C)(=O)=O |  |  |  | 0.06 µM |
| CSC[C@H](NC(=O)COc1cccc(-c2ccccc2)c1)C(=O)N[C@@H](Cc1ccccc1)[C@H](O)C(=O)N1CSC(C)(C)[C@H]1C(=O)NC(C)(C)C |  |  |  | 0.0023 µM |
| CC(=O)N[C@H](CSc1cccc2ccccc12)C(=O)N[C@@H](Cc1ccccc1)[C@H](O)C(=O)N1CSC(C)(C)[C@H]1C(=O)NCc1ccccc1C |  |  |  | <0.001 µM |
| O=C(N[C@@H](Cc1ccccc1)[C@H](Cc1ccccc1)n1cc(CN2CC=C(c3ccc(Cl)cc3)CC2)nn1)OC1CCCC1 |  | fluorescence |  | <5 µM |
| CC(C)(C)NC(=O)[C@H]1N(C(=O)[C@@H](O)[C@H](Cc2ccccc2)NC(=O)[C@H](CC(N)=O)NC(=O)OCc2ccccc2)CSC1(C)C |  |  |  | 0.0035 µM |
| C=C1[C@@H](C)[C@H]2[C@H](Cc3ccccc3)NC(=O)[C@]23[C@H](OC(C)=O)/C=C/[C@@H](C)C[C@@H](C)C/C=C/[C@H]3[C@@H]1O |  |  |  | 3 µM |
| CC[C@H](C)[C@H](NC(=O)[C@@H]1CCCN1C[C@@H](O)[C@H](Cc1ccccc1)NC(=O)[C@H](CC(N)=O)NC(=O)[C@H](CC(C)C)NC(C)=O)C(=O)N[C@H](C(=O)OC)C(C)C |  | fluorescence |  | 0.06 µM |
| CC(=O)N[C@H](C(=O)N[C@@H](Cc1ccccc1)[C@H](O)CN1C[C@H]2CCCC[C@H]2C[C@H]1C(=O)NC(C)(C)C)C(C)(C)C |  |  |  | 0.0085 µM |
| O=S1(=O)[C@H](Cc2ccccc2)[C@H](OCc2ccncc2)[C@H](O)[C@@H](O)[C@@H](OCc2ccncc2)[C@H]1Cc1ccccc1 |  | fluorescence |  | <2 µM |
| CCOC(=O)N[C@@H](Cc1ccccc1)[C@H](Cc1ccccc1)n1cc(CN2CCN(c3cc(Cl)ccc3C)CC2)nn1 |  | fluorescence |  | >5 µM |
| COc1ccc(C(O)C(C)Oc2ccc([C@H]3O[C@H](c4ccc(OC(C)C(O)c5ccc(OC)c(OC)c5)c(OC)c4)[C@H](C)[C@H]3C)cc2OC)cc1OC |  | substrate cleavage |  | 38.9 µM |
| CC(C)(C)NC(=O)[C@@H]1CCCN1C(=O)[C@@H](O)[C@H](Cc1ccccc1)NC(=O)[C@H](CC(N)=O)NC(=O)c1ccc2ccccc2n1 |  |  |  | 0.02 µM |
| O=S1(=O)[C@H](Cc2ccccc2)[C@H](OCc2cccc(Br)c2)[C@H](O)[C@@H](O)[C@@H](OCc2cccc(Br)c2)[C@H]1Cc1ccccc1 |  | fluorescence |  | <2 µM |

For reference, 4 entries again:

compound | mutations | method | setting | value
CC(C)(C)NC(=O)[C@@H]1CCCN1C(=O)[C@@H](O)[C@H](Cc1ccccc1)NC(=O)[C@H](CC(N)=O)NC(=O)OCC1c2ccccc2-c2ccccc21 |  |  |  | 0.045 µM
Nc1cccc(CO[C@@H]2[C@H](O)[C@@H](O)[C@@H](OCc3cccc(N)c3)[C@@H](Cc3ccccc3)S(=O)(=O)[C@@H]2Cc2ccccc2)c1 |  | fluorescence |  | <2 µM
CSC[C@H](NC(=O)COc1cccc(-c2ccccc2)c1)C(=O)N[C@@H](Cc1ccccc1)[C@H](O)C(=O)N1CSC(C)(C)[C@H]1C(=O)NC(C)(C)C |  |  |  | 0.0023 µM
CC(C)(C)OC(=O)N[C@@H](Cc1ccccc1)[C@H](O)CNC[C@@H](O)[C@H](CC1CCCCC1)NC(=O)OC(C)(C)C |  | HPLC | pH 5.5 | <10 µM